Pooled drug test results. Numbers come from NIAID ChemDB, via PubChem.

Common to all: tests in culture; species: HIV-1; cell line: MT-4; read-out: EC50

Conditions beyond the fields shown may differ between rows. Blank or dashed fields: not listed here. ECn is the concentration giving n% inhibition of infection, replication or growth.

| smiles | strain or isolate | changes | read by | setting | result |
|---|---|---|---|---|---|
| CCc1cc(SCc2nc3c(Cl)ccc(Cl)c3o2)c(=O)[nH]c1C | IIIB |  | p24 |  | <0.0375 µM |
| CC(C)=CCN1C(=O)c2cc(Cl)ccc2NC(=O)C1C |  |  | cytopathic effect / MTT |  | >100 µM |
| O=c1[nH]cnc2c1ncn2[C@H]1CC[C@@H](CO)O1 | 126 BCH-189 (RT-M184V) | RT-M184V | p24 |  | 65 µM |
| Nc1ncnc2nnn(CCOCP(=O)(O)O)c12 |  |  | cytopathic effect / MTT |  | >365 µM |
| Cc1cn([C@H]2C[C@H](N=[N+]=[N-])[C@@H](CO)O2)c(=O)[nH]c1=O | Clinical isolate 263 |  | RT activity |  | 0.02 µM |
| COc1ccc2nc3cc(Cl)ccc3c(NCCCO)c2c1 |  |  | MTT |  | >59 µM |
| C[C@H](CC(=O)O)[C@H]1CC[C@H]2[C@@H]3CC[C@@H]4C[C@H](OS(=O)(=O)O)CC[C@]4(C)[C@H]3C[C@H](OS(=O)(=O)O)[C@]12C | IIIB |  | cytopathic effect / MTT |  | 256 µg/mL |
| Nc1nc2nn(CCOCP(=O)(O)O)nc2c(=O)[nH]1 |  |  | cytopathic effect / MTT |  | >315 µM |
| C[C@H](CCC(=O)O)[C@H]1CC[C@H]2[C@@H]3CC[C@@H]4C[C@H](OS(=O)(=O)O)CC[C@]4(C)[C@H]3C[C@H](OS(=O)(=O)O)[C@]12C | IIIB |  | cytopathic effect / MTT |  | >311 µg/mL |
| COC(=O)[C@H](C)NP(=O)(OC[C@H]1C=C[C@@H](n2cnc3c(N)ncnc32)C1)Oc1ccc([N+](=O)[O-])cc1 | IIIB |  | cytopathic effect / MTS |  | 0.18 µM |
| CC1(C)C2=CC(=O)C(c3ccccc3)C(=O)N2c2ccccc21 | RF |  | cytopathic effect / MTT |  | >100 µM |
| CCCCCCCCCCCC(=O)O[C@@]12[C@H](OC(=O)C(C)CC)[C@@H](C)[C@@]3(O)[C@@H](C=C(CO)C[C@]4(O)C(=O)C(C)=C[C@@H]34)[C@@H]1C2(C)C | LAV-1 |  | cytopathic effect / microscopy / visual reading |  | <15.76 µg/mL |
| CCc1cc(CNc2nc3ccccc3o2)c(=O)[nH]c1C | IIIB |  | p24 |  | <10 µM |
| COc1ccc2nc3cc(Cl)ccc3c(NC(CO)C(C)C)c2c1 |  |  | MTT |  | >0.7 µM |
| C[C@H]1C(=O)Nc2ccc(Cl)cc2CN1CC1CC1 |  |  | cytopathic effect / MTT |  | >100 µM |
| COC(=O)[C@H](C)NP(=O)(OC[C@H]1C=C[C@@H](n2cnc3c(N)ncnc32)C1)Oc1ccccc1 | IIIB |  | cytopathic effect / trypan blue |  | 0.045 µM |
| O=c1ccc(-c2cccc(C(F)(F)F)c2)c(O)c(O)c1O | IIIB |  | cytopathic effect / MTT |  | >3 µM |
| C[C@H](CCC(=O)O)[C@H]1CC[C@H]2C3[C@H](OS(=O)(=O)O)C[C@@H]4C[C@H](OS(=O)(=O)O)CC[C@]4(C)[C@H]3CC[C@]12C | IIIB |  | cytopathic effect / MTT |  | 223 µg/mL |
| Nc1ncnc2c(CC3(CO)CCC3)c[nH]c12 |  |  |  |  | 87.3 µM |
| COc1ccc2nc3cc(Cl)ccc3c(NCCCN3CCOCC3)c2c1 |  |  | MTT |  | >1.9 µM |
| CCc1cc(CCc2nc3c(F)ccc(F)c3o2)c(=O)[nH]c1C | IIIB |  | p24 |  | <0.05 µM |
| O=c1ccc(-c2ccsc2)c(O)c(O)c1O | IIIB |  | cytopathic effect / MTT |  | >3 µM |
| COC(=O)C[C@H](NP(=O)(OC[C@H]1C=C[C@@H](n2cnc3c(N)ncnc32)C1)Oc1ccccc1)C(=O)OC | IIIB |  | cytopathic effect / MTS |  | >1 µM |
| Cc1cn([C@H]2C=C[C@@H](CO)O2)c(=O)[nH]c1=O | RTMC (P-0) |  |  |  | 1.2 µM |
| CNC(=O)N1Cc2cc(Cl)ccc2NC(=O)[C@@H]1C |  |  | cytopathic effect / MTT |  | >713 µM |
| Nc1nc2c(nnn2CCOCP(=O)(O)O)c(=O)[nH]1 |  |  | cytopathic effect / MTT |  | 15 µM |
| C1CNCCNCC(CCCC2CNCCNCCCNCCNC2)CNCCNC1 | IIIB |  | cytopathic effect / MTT | 5 d | 0.12 µM |
| CC(C)C1NCc2cc(Cl)ccc2N(C)C1=O |  |  | cytopathic effect / MTT |  | >100 µM |
| C/C=C(\C)C(=O)O[C@@]12[C@H](O)[C@@H](C)[C@@]3(O)[C@@H](C=C(COC(=O)CCCCCCC/C=C\C/C=C\CCCCC)C[C@]4(O)C(=O)C(C)=C[C@@H]34)[C@@H]1C2(C)C | LAV-1 |  | cytopathic effect / microscopy / visual reading |  | <7.81 µg/mL |
| O=c1ccccc(-c2cncnc2)c1O | IIIB |  | cytopathic effect / MTT |  | >29 µM |
| CCCN1Cc2cc(Cl)ccc2NC(=O)C1C |  |  | cytopathic effect / MTT |  | 540 µM |
| C/C=C(/C)C(=O)O[C@@H]1[C@@H](C)[C@@]2(O)C(C=C(CO)C[C@]3(O)C(=O)C(C)=CC23)C2C(C)(C)[C@@]21OC(=O)C(C)CC | LAV-1 |  | cytopathic effect / microscopy / visual reading |  | <31.3 µg/mL |
| COC(=O)[C@H](C)NP(=O)(OC[C@@H]1CC[C@H](n2cnc3c(N)ncnc32)C1)Oc1ccccc1 | IIIB |  | cytopathic effect / MTS |  | 0.2 µM |
| CCS(=O)(=O)C[C@H]1O[C@@H](n2cc(C)c(=O)[nH]c2=O)C[C@@H]1N=[N+]=[N-] | IIIB |  |  |  | ≥2.3 µg/mL |
| O=C1CNCc2cc(Cl)ccc2N1 |  |  | cytopathic effect / MTT |  | >1100 µM |
| CC(C)(C)C(=O)SCCOP(=O)(COCCn1cnc2c(N)ncnc21)OCCSC(=O)C(C)(C)C |  |  |  |  | 0.67 µM |
| CCc1cc(CCc2nc3c(C)ccc(C)c3o2)c(=O)[nH]c1C | IIIB |  | p24 |  | <0.3 µM |
| COC(=O)[C@H](CCSC)NP(=O)(OC[C@H]1C=C[C@@H](n2cnc3c(N)ncnc32)C1)Oc1ccccc1 | IIIB |  | cytopathic effect / MTS |  | 1.4 µM |
| CCSC[C@H]1O[C@@H](n2cc(C)c(=O)[nH]c2=O)C[C@@H]1N=[N+]=[N-] | IIIB |  |  |  | 0.83 µg/mL |
| CCc1cc(CCc2nc3cccc(Cl)c3o2)c(=O)[nH]c1C | IIIB |  | p24 |  | <0.1 µM |
| Nc1ncnc2c1ncn2CCOCP(=O)(O)O |  |  |  |  | >10 µM |
| C(CCC1CNCCNCCCNCCNC1)CCC1CNCCNCCCNCCNC1 | SF2 |  | cytopathic effect / MTT | 5 d | 27 µM |
| CC1(C)C2=CC(=O)C(O)(c3ccccc3)C(=O)N2c2ccc(Cl)cc21 | HXB2 |  | cytopathic effect / MTT |  | 0.11 µM |
| CCCCCCCCCCCCCC(=O)O[C@@H]1[C@@H](C)[C@@]2(O)[C@@H](C=C(CO)C[C@]3(O)C(=O)C(C)=C[C@@H]23)[C@@H]2C(C)(C)[C@]12OC(C)=O | LAV-1 |  | cytopathic effect / microscopy / visual reading |  | <0.00048 µg/mL |
| CCc1cc(CCc2nc3c(Cl)ccc(Cl)c3o2)c(=S)[nH]c1C | IIIB |  | p24 |  | <0.1 µM |
| COC(=O)[C@@H](NP(=O)(OC[C@H]1C=C[C@@H](n2cnc3c(N)ncnc32)C1)Oc1ccccc1)C(C)C | IIIB |  | cytopathic effect / trypan blue |  | 1.09 µM |
| CC(C)=CCN1Cc2ccccc2NC(=O)C1C |  |  | cytopathic effect / MTT |  | 29.6 µM |
| COc1ccc2nc3cc(Cl)ccc3c(NCCN3CCCC(O)C3)c2c1 |  |  | MTT |  | >1.5 µM |
| Cc1cn([C@H]2C[C@H](N=[N+]=[N-])[C@@H](COP(=O)(O)OC[C@@H]3CC[C@H](n4cnc5c(=O)[nH]cnc54)O3)O2)c(=O)[nH]c1=O | IIIB |  | RT activity |  | 0.05 µM |
| CCOP(=O)(O)COCCn1nnc2c(N)ncnc21 |  |  | cytopathic effect / MTT |  | >331 µM |
| C1CCNCCNCCCNCCNC1 | IIIB |  | cytopathic effect / MTT |  | 100 µM |
| COC(=O)[C@H](CC(C)C)NP(=O)(OC[C@H]1C=C[C@@H](n2cnc3c(N)ncnc32)C1)Oc1ccccc1 | IIIB |  | cytopathic effect / MTS |  | 0.64 µM |
| O=c1[nH]cnc2c1ncn2[C@H]1CC[C@@H](CO)O1 | IIIB |  | p24 |  | <10 µM |
| COc1ccc2nc3cc(Cl)ccc3c(NC[C@@H]3CCCN4CCCC[C@H]34)c2c1 |  |  | MTT |  | >0.5 µM |
| Cc1ccnc2c1NC(=O)c1cccnc1N2C1CC1 |  | RT-M41L T215Y K101E |  |  | <1.5 µM |
| CC(C)Nc1cccnc1N1CCN(C(=O)c2cc3cc(NS(C)(=O)=O)ccc3[nH]2)CC1 | IIIB |  | MTT |  | 0.32 µM |
| CC(=O)Oc1cc(OC(C)=O)c(OC(C)=O)c(=O)c(OC(C)=O)c1 | IIIB |  | cytopathic effect / MTT |  | >6 µM |
| C1CNCCNCC(CCC2CNCCNCCCNCCNC2)CNCCNC1 | IIIB |  | cytopathic effect / MTT | 5 d | 0.18 µM |
| CC(C)[C@H](NC(=O)[C@H](CCCN=C(N)N)NC(=O)N[C@@H](Cc1ccccc1)C(=O)O)C(=O)N[C@@H](C=O)Cc1ccccc1 | RF |  | cytopathic effect / MTT |  | 0.048 µM |
| COc1ccc2nc3cc(Cl)ccc3c(N3CCC(O)CC3)c2c1 |  |  | MTT |  | >6.2 µM |

The last 6 rows once more:

smiles	strain or isolate	changes	read by	setting	result
Cc1ccnc2c1NC(=O)c1cccnc1N2C1CC1		RT-M41L T215Y K101E			<1.5 µM
CC(C)Nc1cccnc1N1CCN(C(=O)c2cc3cc(NS(C)(=O)=O)ccc3[nH]2)CC1	IIIB		MTT		0.32 µM
CC(=O)Oc1cc(OC(C)=O)c(OC(C)=O)c(=O)c(OC(C)=O)c1	IIIB		cytopathic effect / MTT		>6 µM
C1CNCCNCC(CCC2CNCCNCCCNCCNC2)CNCCNC1	IIIB		cytopathic effect / MTT	5 d	0.18 µM
CC(C)[C@H](NC(=O)[C@H](CCCN=C(N)N)NC(=O)N[C@@H](Cc1ccccc1)C(=O)O)C(=O)N[C@@H](C=O)Cc1ccccc1	RF		cytopathic effect / MTT		0.048 µM
COc1ccc2nc3cc(Cl)ccc3c(N3CCC(O)CC3)c2c1			MTT		>6.2 µM